The values below are quoted from earlier work in patent US20240261253A1, “DAUR[…] AND IT'S USE IN MEDICINE” (Phytotherapeutix Ltd., priority 2021, published 2024).

For the series, the system named is HIV. The conditions noted are these: uninfected H9 growth EC50 / anti-HIV EC50; cited from earlier work.

As to `CC(C)=CCC/C(C)=C/CC[C@@]1(C)C=Cc2c(cc(C)c(C(=O)O)c2O)O1` [(+)-DCA, (S,E)-2-(4,8-dimethylnona-3,7-dien-1-yl)-5-hydroxy-2,7-dimethyl-2H-chromene-6-carboxylic acid], the therapeutic index was 3,710.
